Results on 87 molecules are retold here after PubChem BioAssay AID488890 (Southern Research Specialized Biocontainment Screening …, 2010).

Some of the results follow. Inconclusive results are not listed. The rule behind the calls is not given here. Some salts and complexes are drawn in separate pieces, as the source files them; their charges need not balance.

The test is described as follows: growth inhibition of non-replicating M. tuberculosis (AID 488890).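 Note: plate controls were DMSO cells for no effect and high antibiotic wells for full effect.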 Conditions: Mycobacterium tuberculosis non-replicating, at 25 µM, stronger effect = higher value.
As a reminder, the inhibition is the drop in the measured response relative to a control, in per cent. `Cc1ccc(C)c(NP(C)(=O)Oc2ccccc2)c1` (configuration not stated): the inhibition was -0.6%.
Regarding `Cc1cc(C)cc(OP(C)(=O)Nc2ccccn2)c1` (configuration not stated), the inhibition came to 3.91%.
As for `CP(=O)(Nc1cccc(Br)c1)Oc1ccccc1` (configuration not stated), the inhibition is 11.3%.
For `COc1ccccc1OP(C)(=O)Nc1cccc(Br)c1` (configuration not stated), the inhibition was -6.39%.
For `CCOC(=O)c1ccc(NP(C)(=O)Oc2cc(C)cc(C)c2)cc1` (configuration not stated), the inhibition was 35.3%.
Turning to `Cc1cc(C)cc(OP(C)(=O)Nc2ccc(C)cc2C)c1` (configuration not stated), the inhibition worked out at 15.8%.
With `CC1=NCCc2c1[nH]c1ccccc21.O=[N+]([O-])c1cc([N+](=O)[O-])c(O)c([N+](=O)[O-])c1`, the inhibition was 2.69%.
`O=C(O)c1cccc(Nc2c([N+](=O)[O-])cc([N+](=O)[O-])cc2[N+](=O)[O-])c1`: the inhibition was 5.8%.
For `COc1ccccc1OP(C)(=O)Nc1c(C)cccc1C` (configuration not stated) the value was -1.1%; for `CN1CCCCC1COC(=O)C1(O)c2ccccc2CCc2ccccc21` (configuration not stated), 8.87%; for `CCCOc1ccc(NP(C)(=O)Oc2ccc(Cl)cc2)cc1` (configuration not stated), 34%.
Consider `CP(=O)(Nc1ccc(SC(F)(F)F)cc1)Oc1ccccc1` (configuration not stated), for which the inhibition came to 30.9%.
As for `CCOC(=O)C(CC)C1=NC(C)(C)Cc2ccccc21.O=[N+]([O-])c1cc([N+](=O)[O-])c(O)c([N+](=O)[O-])c1` (configuration not stated), the inhibition is -2.89%.
In the case of `CC1=C2N=C(C=C3N=C(C(C)=C4[N-][C@@](C)([C@@H]5N=C1[C@](C)(CCC(=O)NC[C@@H](C)OP(=O)([O-])O[C@H]1[C@@H](O)[C@@H](n6cnc7cc(C)c(C)cc76)O[C@@H]1CO)[C@H]5CC(N)=O)[C@@](C)(CC(N)=O)[C@@H]4CCC(N)=O)[C@@](C)(CC(N)=O)[C@@H]3CCC(N)=O)C(C)(C)[C@@H]2CCC(N)=O.[C-]#N.[Co+3]`, the inhibition is 72.3%.
For `O=[N+]([O-])c1cc([N+](=O)[O-])c(Nc2nnnn2CCO)c([N+](=O)[O-])c1` the value was -7.9%.
With `Cc1nc2ccc3ccccc3c2s1.O=[N+]([O-])c1cc([N+](=O)[O-])c(O)c([N+](=O)[O-])c1`, the inhibition was 20.9%.
Consider `O=[N+]([O-])c1cc([N+](=O)[O-])c(-n2nnc3ccccc32)c([N+](=O)[O-])c1`, for which the inhibition worked out at 0.27%.
As to `CCOC(=O)c1ccc(NP(C)(=O)Oc2ccc(OC)cc2)cc1` (configuration not stated), the inhibition worked out at 28.7%.
For `O=[N+]([O-])c1cc([N+](=O)[O-])c(O)c([N+](=O)[O-])c1.c1ccc(Oc2ccncc2)cc1` the value was -6.89%; for `CCOP(C)(=S)SCC(=O)NC(C)C(=O)O` (configuration not stated), -2.22%; for `CP(=O)(Nc1ccccn1)Oc1ccc(Cl)cc1` (configuration not stated), -11.4%.
Consider `CP(=O)(Oc1ccccc1)OC(c1ccccc1)C(F)(F)F` (configuration not stated), for which the inhibition was determined as 0.58%.
For `Cc1cccc(C)c1OP(C)(=O)Nc1ccc(SC(F)(F)F)cc1` (configuration not stated), the inhibition was found to be 32%.
Take `CP(=O)(Nc1ccc(SC(F)(F)F)cc1)Oc1ccc(Cl)cc1` (configuration not stated): the inhibition turned out to be 22%.
`Cc1cc(C)cc(OP(C)(=O)Nc2ccc(SC(F)(F)F)cc2)c1` (configuration not stated): the inhibition was 22.9%.
On to `CP(=O)(NC(=O)Nc1ccccc1)Oc1ccccc1` (configuration not stated), for which the inhibition amounted to 8.44%.
Regarding `CCc1ccc(OP(C)(=O)N2CCN(c3ccc([N+](=O)[O-])cc3)CC2)cc1` (configuration not stated), the inhibition amounted to 38.5%.
On to `CP(=S)(Nn1cnnc1)Oc1ccccc1` (configuration not stated), for which the inhibition is -0.47%.
`CP(=O)(Nc1ccccc1Br)Oc1ccccc1` (configuration not stated): the inhibition stood at 9.43%.
As for `COc1ccccc1OP(C)(=O)Nc1ccccc1` (configuration not stated), the figure is 5.61%; as for `Cc1ccc(NP(C)(=O)Oc2ccccc2)c(C)c1` (configuration not stated), 8.85%; as for `COc1ccccc1OP(C)(=O)Nc1ccc(C)cc1` (configuration not stated), 4.98%.
Take `CCOC(=O)c1ccc(NP(C)(=O)Oc2ccccc2)cc1` (configuration not stated): the inhibition is -17.6%.
For `Cc1cc(C)cc(OP(C)(N)=O)c1` (configuration not stated) the value was 18.8%.
Regarding `COc1ccc(OP(C)(=O)Nc2cccc(F)c2)cc1` (configuration not stated), the inhibition is -12.7%.
For the molecule `COc1ccccc1OP(C)(=O)Nc1cc(Cl)ccc1C` (configuration not stated), the inhibition was -5.23%.
On to `O=[N+]([O-])c1cc([N+](=O)[O-])c(Nc2cccnc2)c([N+](=O)[O-])c1`, for which the inhibition worked out at 35.6%.
For `O=[N+]([O-])c1ccc2c(c1)C=Nc1ccccc1O2`, the inhibition is 73.1%.
Take `Cc1cccc(C)c1OP(C)(N)=O` (configuration not stated): the inhibition was -8.97%.
As for `CC(C)(C)c1ccc(OP(C)(=O)Nc2ccc(SC(F)(F)F)cc2)cc1` (configuration not stated), the inhibition was 10.2%.
As for `CCN(CC)CCCOC(=O)C(O)(c1ccccc1)c1ccccc1`, the figure is -2.3%; as for `Cc1c(NP(C)(=O)Oc2ccc(C(C)C)cc2)c(=O)n(-c2ccccc2)n1C` (configuration not stated), -0.53%.
Regarding `COc1ccccc1OP(C)(=O)Nc1ccc(C)cc1C` (configuration not stated), the inhibition is 59.6%.
With `CP(=O)(Nc1ccccn1)Oc1ccccc1` (configuration not stated), the inhibition is -3.93%.
For `CCc1ccc(OP(C)(=O)O)cc1` the value was -4.6%.
Regarding `COc1ccccc1OP(C)(=O)Nc1ccc(Br)cc1` (configuration not stated), the inhibition was 14.2%.
Consider `COc1ccc(OP(C)(=O)Nc2ccccn2)cc1` (configuration not stated), for which the inhibition was determined as 11.2%.
Take `CN(C)CCOC(=O)C(O)(c1ccccc1)C1CCCC1` (configuration not stated): the inhibition came out at 8.11%.
For `Cc1nc2ccc3ccccc3c2o1.O=[N+]([O-])c1cc([N+](=O)[O-])c(O)c([N+](=O)[O-])c1` the value was 13.2%; for `CP(=O)(Nc1ccc(Cl)cc1Cl)Oc1ccccc1` (configuration not stated), 23.8%.
As for `CP(=O)(OCCOc1ccccc1)OCCOc1ccccc1`, the figure is 18.9%; as for `Cc1cc(C)cc(OP(C)(=O)Nc2cccc(C(F)(F)F)c2)c1` (configuration not stated), 13.8%.
For `COc1ccccc1OP(C)(=O)Nc1ccc(C)c(C)c1` (configuration not stated) the value was 2.54%.
As to `COc1ccc(OP(C)(=O)Nc2ccccc2Br)cc1` (configuration not stated), the inhibition was determined as 5.22%.
Take `Nc1ccc2c(ccc3cccnc32)n1.O=[N+]([O-])c1cc([N+](=O)[O-])c(O)c([N+](=O)[O-])c1`: the inhibition was 23.9%.
On to `CCOC(=O)c1ccc(NP(C)(=O)Oc2ccc(Cl)cc2)cc1` (configuration not stated), for which the inhibition was found to be 12.9%.
In the case of `CP(=O)(OC12CC3CC(CC(C3)C1)C2)OC12CC3CC(CC(C3)C1)C2`, the inhibition came to 22.4%.
On to `COc1ccccc1OP(C)(=O)Nc1ccccc1Br` (configuration not stated), for which the inhibition was 10%.
Take `CC(C)(C)c1ccc(OP(C)(=O)O)cc1`: the inhibition was -5.35%.
For `CP(=O)(Nc1ccc(Cl)cc1)Oc1ccc(F)cc1` (configuration not stated), the inhibition was determined as 24.3%.
Regarding `CN(C)C(=O)c1c([N+](=O)[O-])cc([N+](=O)[O-])cc1[N+](=O)[O-]`, the inhibition was determined as 51.4%.
With `COc1ccc(OP(C)(=O)Nc2ccc(Br)cc2)cc1` (configuration not stated), the inhibition turned out to be 19.4%.
For the molecule `CCN(CC)CC(O)COC(=O)C(O)(c1ccccc1)C1CCCCC1` (configuration not stated), the inhibition stood at 0.69%.
For `O=C(OCCCN1CCCC1)C(O)(c1ccccc1)C1CCCCC1` (configuration not stated) the value was 8.78%; for `COc1ccccc1OP(C)(=O)Nc1c(C)n(C)n(-c2ccccc2)c1=O` (configuration not stated), 2.31%.
For the molecule `CCc1ccc(OP(C)(=O)Nc2cccnc2)cc1` (configuration not stated), the inhibition was -4.61%.
Turning to `CP(=O)(Oc1ccccc1)N1CCOC1=O` (configuration not stated), the inhibition is -6.11%.
For the molecule `CP(=O)(Nc1ccc2c(c1)OCCO2)Oc1ccccc1` (configuration not stated), the inhibition was found to be 2.11%.
In the case of `Cc1ccccc1NP(C)(=O)Nc1ccccc1C`, the inhibition is -2.57%.
`CP(=O)(Nc1ccc(SC(F)(F)F)cc1)Oc1ccc(F)cc1` (configuration not stated): the inhibition was 30.9%.
As to `CCOP(C)(=S)SCC(=O)NC(C)(CC)C(=O)O` (configuration not stated), the inhibition was -0.24%.
In the case of `O=[N+]([O-])c1ccc(OP2(=O)COCCO2)cc1` (configuration not stated), the inhibition is 0.28%.
As for `O=[N+]([O-])c1cc([N+](=O)[O-])c(NCC2CCS(=O)(=O)C2)c([N+](=O)[O-])c1` (configuration not stated), the figure is 74.3%; as for `COc1ccc(OP(C)(=O)Nc2cccc(Br)c2)cc1` (configuration not stated), 9.71%.
For `CN(C)CCOC(=O)C(O)(c1ccccc1)C1CCCCC1` (configuration not stated) the value was 19.6%; for `COc1ccc(NP(C)(=O)Oc2ccccc2OC)cc1` (configuration not stated), -7.92%.
For the molecule `CCN(CC)CCCOC(=O)C(O)(c1ccccc1)C1CCCCC1` (configuration not stated), the inhibition was -1.44%.
With `CP(=O)(Nc1ccccc1)Oc1ccc(F)cc1` (configuration not stated), the inhibition was -6.01%.
On to `CCCCCOc1ccc(NP(C)(=O)Oc2ccc(Cl)cc2Cl)cc1` (configuration not stated), for which the inhibition came to 75.7%.
For the molecule `O=[N+]([O-])c1cc([N+](=O)[O-])c(OC2CCCCC2O)c([N+](=O)[O-])c1` (configuration not stated), the inhibition was 30.9%.
As for `CCOC(=O)c1ccc(NP(C)(=O)Oc2ccc(F)cc2)cc1` (configuration not stated), the inhibition amounted to 7.69%.
For `COc1ccc(OP(C)(=O)Nc2ccc(SC(F)(F)F)cc2)cc1` (configuration not stated), the inhibition came out at 31.4%.
In the case of `O=C(OC1CN2CCC1CC2)c1ccc([N+](=O)[O-])cc1` (configuration not stated), the inhibition came out at 7.95%.
Consider `O=C(OCCN1CCN(CCOCc2ccccc2)CC1)C(O)(c1ccccc1)c1ccccc1`, for which the inhibition was -13.3%.
Regarding `COc1ccc2c(c1O)-c1c(O)c(OC)cc3c1[C@H](C2)[N+](C)(C)CC3.O=[N+]([O-])c1cc([N+](=O)[O-])c([O-])c([N+](=O)[O-])c1[O-]`, the inhibition was found to be 7.84%.
For `CP(=O)(Nc1ccccc1F)Oc1ccccc1` (configuration not stated), the inhibition was -1.95%.
For `CC(C)c1ccc(OP(C)(=O)Nc2ccc(SC(F)(F)F)cc2)cc1` (configuration not stated), the inhibition was 45.8%.
